A mixed list of measured activities; the numbers were collected in NIAID ChemDB.

Common to all: whole-cell or culture tests; organism: HIV-1; cell line: MT-2; measure: EC50

An empty or dashed field is not shown.

| compound | setting | strain or isolate | method | mutations | result |
|---|---|---|---|---|---|
| CC(C)C1=C2[C@H]3CC[C@@H]4[C@@]5(C)CC[C@H](OC(=O)[C@H]6C[C@@H](C(=O)O)C6(C)C)C(C)(C)[C@@H]5CC[C@@]4(C)[C@]3(C)CC[C@@]2(CC(=O)NCCNC(=O)c2ccc(Cl)cc2)CC1=O | - | 92HT599 | p24 / ELISA | - | <1 µM |
| C=C(C)[C@@H]1CC[C@]2(C(=O)O)CC[C@]3(C)[C@H](CC[C@@H]4[C@@]5(C)CC=C(c6ccc(/C=C/C(=O)O)cc6)C(C)(C)[C@@H]5CC[C@]43C)[C@@H]12 | - | NL4-3 | luciferase | Gag P373S | 1 µM |
| CC(C)C1=C2C3CCC4[C@@]5(C)CC[C@H](OC(=O)CC(C)(C)C(=O)O)C(C)(C)C5CC[C@@]4(C)[C@]3(C)CC[C@@]2(NC(=O)C(C)(C)C)CC1=O | 30% human serum | IIIB | RT activity | - | <0.199 µM |
| C=C(C)[C@@H]1CC[C@]2(CO)CC[C@]3(C)[C@H](CC[C@@H]4[C@@]5(C)CC=C(c6ccc(C(=O)O)cn6)C(C)(C)[C@@H]5CC[C@]43C)[C@@H]12 | - | NL4-3 | luciferase | Gag P373S | 1 µM |
| CCN(CC)C(=O)[C@]1(C)Cn2c(=O)c(C(=O)NC)c(O)c3ncc(Cc4ccc(F)cc4)c(c32)O1 | - | IIIB | ATP / luminescence | - | 0.0132 µM |
| CC(C)C1=C2[C@H]3CC[C@@H]4[C@@]5(C)CC[C@H](OC(=O)CC(C)(C)C(=O)O)C(C)(C)[C@@H]5CC[C@@]4(C)[C@]3(C)CC[C@@]2(NC(=O)N2CCN(C(C)C)CC2)CC1=O | 30% human serum | IIIB | RT activity | - | <0.199 µM |
| O=C(O)c1cc(-n2cccc2)ccc1Cl | - | AZT-resistant X4 CLADE B | p24 | - | 51.37 µM |
| C[C@H]1[C@H](C)CC[C@]2(C(=O)O)CC[C@]3(C)C(=CC[C@@H]4[C@@]5(C)CC=C(c6ccc(C(=O)O)cc6)C(C)(C)[C@@H]5CC[C@]43C)[C@H]12 | - | NL4-3 | luciferase | Gag P373S | 1 µM |
| [2H]C([2H])([2H])NC(=O)c1c(O)c2ncc(Cc3ccc(F)cc3)c3c2n(c1=O)C[C@H](CN(CC)CC)O3 | - | IIIB | ATP / luminescence | - | 0.021 µM |
| COc1ccc(N(C)C(=O)[C@H](Cc2ccccc2)NC(=O)Cc2ccccc2CC(=O)N[C@@H](Cc2ccccc2)C(=O)N(C)c2ccc(OC)cc2)cc1 | - | NL4-3 | luciferase | - | 0.55 µM |
| CC(C)C1=C2[C@H]3CC[C@@H]4[C@@]5(C)CC[C@H](OC(=O)[C@H]6C[C@@H](C(=O)O)C6(C)C)C(C)(C)[C@@H]5CC[C@@]4(C)[C@]3(C)CC[C@@]2(CCNCc2ccc(N3CCS(=O)(=O)CC3)nc2)CC1=O | - | 92HT599 | p24 / ELISA | - | <1 µM |
| CCNC(=O)[C@@]1(C)Cn2c(=O)c(C(=O)NCCOC)c(O)c3ncc(Cc4ccc(F)cc4)c(c32)O1 | - | IIIB | ATP / luminescence | - | 0.003 µM |
| Cc1nnc(C(=O)N[C@@]23CC[C@]4(C)[C@H](CC[C@@H]5[C@@]6(C)CC[C@H](OC(=O)CC(C)(C)C(=O)O)C(C)(C)[C@@H]6CC[C@]54C)C2=C(C(C)C)C(=O)C3)o1 | 30% human serum | IIIB | RT activity | - | <0.199 µM |
| Cc1ncn(CCNC(=O)c2c(O)c3ncc(Cc4ccc(F)cc4)c4c3n(c2=O)CC(F)(F)CN4)c1C | - | IIIB | ATP / luminescence | - | 0.015 µM |
| CC(C)C1=C2C3CCC4[C@@]5(C)CC[C@H](OC(=O)CC(C)(C)C(=O)O)C(C)(C)C5CC[C@@]4(C)[C@]3(C)CC[C@@]2(NC(=O)C(=O)N(C)C)CC1=O | 30% human serum | IIIB | RT activity | - | <0.199 µM |
| O=C(Nc1ncnc2c1ncn2[C@@H]1O[C@H](CO)C[C@@H]1F)c1ccccc1 | - | HXB2 Recombinant | RT activity | - | 0.35 µM |
| CN(C(=O)[C@H](Cc1ccccc1)Nc1ncc(-c2cnc(N[C@@H](Cc3ccccc3)C(=O)N(C)c3ccc4scnc4c3)nc2)cn1)c1ccc2scnc2c1 | - | NL4-3 | luciferase | - | 0.34 µM |
| CC(=O)N1CCC(NC(=O)N[C@@]23CC[C@]4(C)C(CCC5[C@@]6(C)CC[C@H](OC(=O)CC(C)(C)C(=O)O)C(C)(C)C6CC[C@]54C)C2=C(C(C)C)C(=O)C3)CC1 | 30% human serum | IIIB | RT activity | - | <0.199 µM |
| CC(=O)N1CCC2(CC1)OCCCn1c2nc(C(=O)NCc2ccc(F)cc2-n2ncnc2C)c(O)c1=O | - | NL4-3 | luciferase / reporter gene | - | 0.01–0.1 µM |
| CC(C)C1=C2[C@H]3CC[C@@H]4[C@@]5(C)CC[C@H](OC(=O)[C@H]6C[C@@H](C(=O)O)C6(C)C)C(C)(C)[C@@H]5CC[C@@]4(C)[C@]3(C)CC[C@@]2(CCNCc2ccccc2Cl)CC1=O | - | 92HT599 | p24 / ELISA | - | <1 µM |
| CC(C)[C@@H]1CC[C@]2(CO)CC[C@]3(C)[C@H](CC[C@@H]4[C@@]5(C)CC=C(c6ccc(C(=O)O)cc6)C(C)(C)[C@@H]5CC[C@]43C)[C@@H]12 | - | NL4-3 | luciferase | Gag P373S | 1 µM |
| CNC(=O)c1c(O)c2ncc(Cc3ccc(F)cc3)c3c2n(c1=O)C[C@](C)(C(=O)NCCC#N)O3 | - | IIIB | ATP / luminescence | - | 0.014 µM |
| Cc1ccc(OCCOc2ccc(-c3cnc(C)c([C@H](OC(C)(C)C)C(=O)O)c3N3CCC(C)(C)CC3)cn2)c(Cl)c1 | - | NL4-3 | luminescence | - | 0.0045 µM |
| CC(C)C1=C2[C@H]3CC[C@@H]4[C@@]5(C)CC[C@H](OC(=O)[C@H]6C[C@@H](C(=O)O)C6(C)C)C(C)(C)[C@@H]5CC[C@@]4(C)[C@]3(C)CC[C@@]2(NC(=O)C(C)(C)NC(=O)c2ccc(Cl)cc2O[C@@H]2CCOC2)CC1=O | - | 92HT599 | p24 / ELISA | - | <0.003 µM |
| CC(C)C1=C2[C@H]3CC[C@@H]4[C@@]5(C)CC[C@H](OC(=O)[C@H]6C[C@@H](C(=O)O)C6(C)C)C(C)(C)[C@@H]5CC[C@@]4(C)[C@]3(C)CC[C@@]2([C@@H](O)CNC(=O)[C@@H](N)C(C)C)CC1=O | - | 92HT599 | p24 / ELISA | - | <1 µM |
| CCCCO[C@H](C(=O)O)c1c(C)ncc(-c2ccc(OCC(F)(F)CC)cn2)c1N1CCC(C)(C)CC1 | - | NL4-3 | luminescence | - | 0.0316 µM |
| Cc1ccc(-c2nc3ccc(CNC(=O)C[C@@]45CC[C@]6(C)[C@H](CC[C@@H]7[C@@]8(C)CC[C@H](OC(=O)[C@H]9C[C@@H](C(=O)O)C9(C)C)C(C)(C)[C@@H]8CC[C@]76C)C4=C(C(C)C)C(=O)C5)cc3[nH]2)cn1 | - | 92HT599 | p24 / ELISA | - | <1 µM |
| CC(C)C1=C2[C@H]3CC[C@@H]4[C@@]5(C)CC[C@H](OC(=O)CC(C)(C)C(=O)O)C(C)(C)[C@@H]5CC[C@@]4(C)[C@]3(C)CC[C@@]2(N)CC1=O | 30% human serum | IIIB | RT activity | - | <0.199 µM |
| COc1ccc(N(C)C(=O)[C@H](Cc2ccccc2)NC(=O)c2ccnc(C(=O)N[C@@H](Cc3ccccc3)C(=O)N(C)c3ccc(OC)cc3)c2)cc1 | - | NL4-3 | luciferase | - | 0.68 µM |
| COc1cnc(-n2cnc(C)n2)c2[nH]cc(C(=O)C(=O)N3CCN(C(=O)c4ccccc4)CC3)c12 | - | RF | RT activity | - | >2 µM |
| Nc1nc(NC2CC2)c2ncn([C@H]3CO[C@@H](CO)O3)c2n1 | - | HXB2(RT-V75I) Recombinant | RT activity | RT-V75I | 1.1 µM |
| CC(C)C1=C2C3CCC4[C@@]5(C)CC[C@H](OC(=O)CC(C)(C)C(=O)O)C(C)(C)C5CC[C@@]4(C)[C@]3(C)CC[C@@]2(NC(=O)NC2(c3ccccn3)CC2)CC1=O | 30% human serum | IIIB | RT activity | - | <0.199 µM |
| CC(C)C1=C2[C@H]3CC[C@@H]4[C@@]5(C)CC[C@H](OC(=O)[C@H]6C[C@@H](C(=O)O)C6(C)C)C(C)(C)[C@@H]5CC[C@@]4(C)[C@]3(C)CC[C@@]2([C@@H](O)CNC(=O)C2(N)COC2)CC1=O | - | 92HT599 | p24 / ELISA | - | <1 µM |
| Cc1ncc(-c2ccc(OC3CC(C)C3)cn2)c(N2CCC(C)(C)CC2)c1[C@H](OC(C)(C)C)C(=O)O | - | NL4-3 | luminescence | - | 0.005 µM |
| Cc1nnc(C(=O)N2CCC3(C2)OCCn2c3nc(C(=O)NCc3ccc(F)cc3-n3ncnc3C)c(O)c2=O)o1 | - | NL4-3 | luciferase / reporter gene | - | ≥0.1 µM |
| CC(C)C1=C2C3CCC4[C@@]5(C)CC[C@H](OC(=O)CC(C)(C)C(=O)O)C(C)(C)C5CC[C@@]4(C)[C@]3(C)CC[C@@]2(NC(=O)CN2CCC2)CC1=O | 30% human serum | IIIB | RT activity | - | <0.199 µM |
| Cc1ncc(-c2ccc(OCCOc3cc(F)cc(F)c3)nc2)c(N2CCC(C)(C)CC2)c1[C@H](OC(C)(C)C)C(=O)O | - | NL4-3 | luminescence | - | 0.0051 µM |
| COc1ccc(N(C)C(=O)[C@H](Cc2cc(F)cc(F)c2)NC(=O)c2cc(Cl)c(Cl)cc2C(=O)N[C@@H](Cc2cc(F)cc(F)c2)C(=O)N(C)c2ccc(OC)cc2)cc1 | - | NL4-3 | luciferase | - | 0.08 µM |
| Cc1ncc(-c2ccc(OCCN3CCC(C)CC3)cn2)c(N2CCC(C)(C)CC2)c1[C@H](OC(C)(C)C)C(=O)O | - | NL4-3 | luminescence | - | 0.0144 µM |
| COCCOc1ccc(C(=O)NC(C)(C)C(=O)N[C@@]23CC[C@]4(C)[C@H](CC[C@@H]5[C@@]6(C)CC[C@H](OC(=O)[C@H]7C[C@@H](C(=O)O)C7(C)C)C(C)(C)[C@@H]6CC[C@]54C)C2=C(C(C)C)C(=O)C3)cc1 | - | 92HT599 | p24 / ELISA | - | <0.003 µM |
| CC(C)C1=C2[C@H]3CC[C@@H]4[C@@]5(C)CC[C@H](OC(=O)[C@H]6C[C@@H](C(=O)O)C6(C)C)C(C)(C)[C@@H]5CC[C@@]4(C)[C@]3(C)CC[C@@]2(CC(=O)NCC(C)(C)NC(=O)c2ccncn2)CC1=O | - | 92HT599 | p24 / ELISA | - | <1 µM |
| CC(C)C1=C2[C@H]3CC[C@@H]4[C@@]5(C)CC[C@H](OC(=O)[C@H]6C[C@@H](C(=O)O)C6(C)C)C(C)(C)[C@@H]5CC[C@@]4(C)[C@]3(C)CC[C@@]2(NC(=O)C(C)(C)NC(=O)c2ccc(N3CCC(O)CC3)cc2)CC1=O | - | 92HT599 | p24 / ELISA | - | <0.003 µM |
| C=CCN(C(=O)[C@H](Cc1cc(F)cc(F)c1)NS(=O)(=O)CCCS(=O)(=O)N[C@@H](Cc1cc(F)cc(F)c1)C(=O)N(CC=C)c1ccc(OC)cc1)c1ccc(OC)cc1 | - | NL4-3 | luciferase | - | 2.64 µM |
| CN(C)S(=O)(=O)N1CCC2(CC1)COCCn1c2nc(C(=O)NCc2ccc(F)cc2)c(O)c1=O | - | NL4-3 | luciferase / reporter gene | - | 0.01–0.1 µM |
| C=C(C)[C@@H]1CC[C@]2(C(C)=O)CC[C@]3(C)[C@H](CC[C@@H]4[C@@]5(C)CC=C(c6ccc(C(=O)OC)cc6)C(C)(C)[C@@H]5CC[C@]43C)[C@@H]12 | - | NL4-3 | luciferase | Gag P373S | >1 µM |
| COC(=O)N1CCC2(CC1)OCCn1c2nc(C(=O)NCc2ccc(F)cc2)c(O)c1=O | - | NL4-3 | luciferase / reporter gene | - | 0.001–0.01 µM |
| C=C(C)CCOc1ccc(-c2cnc(C)c([C@H](OC(C)(C)C)C(=O)O)c2N2CCC(C)(C)CC2)nc1 | - | NL4-3 | luminescence | - | 0.0007 µM |
| CC(C)C1=C2[C@H]3CC[C@@H]4[C@@]5(C)CC[C@H](OC(=O)[C@H]6C[C@@H](C(=O)O)C6(C)C)C(C)(C)[C@@H]5CC[C@@]4(C)[C@]3(C)CC[C@@]2(NC(=O)C(C)(C)NC(=O)c2ccc(CN3CCC(O)CC3)cc2)CC1=O | - | 92HT599 | p24 / ELISA | - | <0.003 µM |
| CC(=O)N1CCC2(CC1)OCCCn1c2nc(C(=O)NCc2ccc(F)cc2)c(O)c1=O | - | NL4-3 | luciferase / reporter gene | - | 0.001–0.01 µM |
| CC(C)C1=C2[C@H]3CC[C@@H]4[C@@]5(C)CC[C@H](OC(=O)[C@H]6C[C@@H](C(=O)O)C6(C)C)C(C)(C)[C@@H]5CC[C@@]4(C)[C@]3(C)CC[C@@]2(NC(=O)C(C)(C)NC(=O)c2ccc(Cl)cc2OCCN2CCCC2)CC1=O | - | 92HT599 | p24 / ELISA | - | <0.003 µM |
| Cc1ccc(C(=O)N[C@@]23CC[C@]4(C)C(CCC5[C@@]6(C)CC[C@H](OC(=O)CC(C)(C)C(=O)O)C(C)(C)C6CC[C@]54C)C2=C(C(C)C)C(=O)C3)s1 | 30% human serum | IIIB | RT activity | - | <0.199 µM |

For reference, 5 entries again:

compound,setting,strain or isolate,method,mutations,result
CC(C)C1=C2[C@H]3CC[C@@H]4[C@@]5(C)CC[C@H](OC(=O)CC(C)(C)C(=O)O)C(C)(C)[C@@H]5CC[C@@]4(C)[C@]3(C)CC[C@@]2(NC(=O)N2CCN(C(C)C)CC2)CC1=O,30% human serum,IIIB,RT activity,-,<0.199 µM
COc1ccc(N(C)C(=O)[C@H](Cc2cc(F)cc(F)c2)NC(=O)c2cc(Cl)c(Cl)cc2C(=O)N[C@@H](Cc2cc(F)cc(F)c2)C(=O)N(C)c2ccc(OC)cc2)cc1,-,NL4-3,luciferase,-,0.08 µM
CN(C)S(=O)(=O)N1CCC2(CC1)COCCn1c2nc(C(=O)NCc2ccc(F)cc2)c(O)c1=O,-,NL4-3,luciferase / reporter gene,-,0.01–0.1 µM
COc1cnc(-n2cnc(C)n2)c2[nH]cc(C(=O)C(=O)N3CCN(C(=O)c4ccccc4)CC3)c12,-,RF,RT activity,-,>2 µM
CC(C)C1=C2C3CCC4[C@@]5(C)CC[C@H](OC(=O)CC(C)(C)C(=O)O)C(C)(C)C5CC[C@@]4(C)[C@]3(C)CC[C@@]2(NC(=O)C(=O)N(C)C)CC1=O,30% human serum,IIIB,RT activity,-,<0.199 µM

Rows are shuffled and stem from different studies. a–b is a range or a potency band. ECn: concentration that inhibits the pathogen or its effect by n%.